Pooled drug test results. Numbers come from NIAID ChemDB, via PubChem.

Shared fields: whole-cell or culture tests; organism: Hepatitis B virus; measure: EC50

Two numbers with a dash give a range or band. Blank or dashed fields: not listed here. ECn: concentration that inhibits the pathogen or its effect by n%. Neighbouring rows are from separate reports.

smiles,strain,conditions,method,cell line,value
O=C(NCc1ccccc1)c1c2n(c(=O)n1-c1ccc(OC3CC3)cc1)CCN(C(=O)c1cc(Cl)c(Br)cc1F)C2,,,PCR,HepG2.117,>0.5 µM
COc1cccc(CNS(=O)(=O)Nc2ccc3c(C(=O)Nc4ccc(F)c(Cl)c4)n(C)nc3c2)n1,,,PCR,HepAD38,100–1000 µM
O=C(NCc1ccccc1)c1c2n(c(=O)n1-c1ncccn1)CCN(C(=O)c1ccc(Cl)c(Cl)c1)C2,,,PCR,HepG2.117,>5 µM
Cn1nc2cc(NS(=O)(=O)NC3CNC3)ccc2c1C(=O)Nc1ccc(F)c(Cl)c1,,,PCR,HepAD38,>1000 µM
COCCOc1cc2c(cc1Cl)-c1c(cc(C(=O)O)c(=O)n1C1CC1)CS2(=O)=O,,,antigen / visual reading / absorbance,Primary human hepatocytes,0.1–0.5 µM
Cn1nc2cc(NS(=O)(=O)c3cnn(-c4cccnc4N)c3)ccc2c1C(=O)Nc1ccc(F)c(Cl)c1,,,PCR,HepAD38,100–1000 µM
COCCCOc1cc2c(cc1-c1ncc(C)s1)-c1c(cc(C(=O)O)c(=O)n1C1CC1)C(C)S2(=O)=O,,,antigen / visual reading / absorbance,Primary human hepatocytes,>0.5 µM
COc1ccc(-n2c(=O)c3c(n4ncc(NC(=O)C(C)C)c24)CN(C(=O)c2ccc(Cl)c(Cl)c2)CC3)cc1,,3 d,PCR,HepG2.117,>5 µM
COCCCOc1cc2c(cc1N1CCCC1=O)-c1c(cc(C(=O)O)c(=O)n1C1CC1)C(C)S2(=O)=O,,,antigen / visual reading / absorbance,Primary human hepatocytes,>0.5 µM
COc1ccc(-n2c(C(=O)NCc3ccc(C)c(OC)c3)c3n(c2=O)CCN(C(=O)c2ccc(Cl)c(Cl)c2)C3)cc1,,,PCR,HepG2.117,0.5–5 µM
CN(c1ccc2c(C(=O)Nc3ccc(F)c(Cl)c3)n(C)nc2c1)S(=O)(=O)c1cnn(C)c1,,,PCR,HepAD38,100–1000 µM
CCOCCOc1cc2c(cc1Cl)-c1c(cc(C(=O)O)c(=O)n1C1CC1)CS2(=O)=O,,,antigen / visual reading / absorbance,Primary human hepatocytes,0.1–0.5 µM
CNS(=O)(=O)N1CC[C@@H](NS(=O)(=O)c2cn(C)c(C(=O)Nc3ccc(F)c(C(F)F)c3)c2F)C1,,,PCR,HepAD38 cells,<0.1 µM
COc1ccc(-n2c(-c3nnc(Cc4ccccc4)o3)c3n(c2=O)CCN(C(=O)c2ccc(Cl)c(Cl)c2)C3)cc1,,,PCR,HepG2.117,>5 µM
CNC(=O)c1ccc(-n2c(=O)c3c(n4ncc(Cc5ccccc5)c24)CN(C(=O)c2ccc(Br)c(C#N)c2)[C@H](C)C3)cc1,,3 d,PCR,HepG2.117,<0.1 µM
C=C1[C@H](CO)[C@@H](O)C[C@@H]1n1cnc2c(=O)[nH]c(N)nc21,Genotype D,,PCR,,0.0019 µM
Cn1cc(CCNC(=O)c2ccc3c(C(=O)Nc4ccc(F)c(Cl)c4)n(C)nc3c2)cn1,,,PCR,HepAD38,100–1000 µM
O=C(Nc1cc(F)c(F)c(F)c1)c1c(Cl)c(S(=O)(=O)NC2CCN(S(=O)(=O)C3CC3)CC2(F)F)c2n1CCC2,,,PCR,HepAD38 cells,<0.1 µM
COCCCOc1cc2c(cc1Cl)-c1c(cc(C(=O)O)c(=O)n1C1CC1)C(C1COC1)S2(=O)=O,,,antigen / visual reading / absorbance,Primary human hepatocytes,0.1–0.5 µM
CC(C)NC(=O)C(=O)N1CC[C@@H](NS(=O)(=O)c2cn(C)c(C(=O)Nc3cc(F)c(F)c(F)c3)c2F)[C@@H](C)C1,,,PCR,HepAD38 cells,<0.1 µM
CNC(=O)c1ccc(-n2c(=O)c3c(n4ncc(NCc5ccccc5F)c24)CN(C(=O)c2ccc(Br)c(C#N)c2)CC3)cc1,,3 d,PCR,HepG2.117,0.1–0.5 µM
C[C@H]1Cn2c(c(C(=O)NCc3ccccc3-c3ncccn3)n(-c3ccc(-n4cccn4)cc3)c2=O)CN1C(=O)c1ccc(Br)c(Cl)c1,,,PCR,HepG2.2.15,<0.1 µM
CC1Sc2cc(O)c(Cl)cc2-c2c1cc(C(=O)O)c(=O)n2C1CC1,,,antigen / visual reading / absorbance,Primary human hepatocytes,>0.5 µM
Cc1ccc(-n2cc(S(=O)(=O)Nc3ccc4c(C(=O)Nc5ccc(F)c(Cl)c5)n(C)nc4c3)cn2)nc1,,,PCR,HepAD38,<100 µM
CCOCCCOc1cc2c(cc1Cl)-c1c(cc(C(=O)O)c(=O)n1C1CC1)C(C)S2(=O)=O,,,antigen / visual reading / absorbance,Primary human hepatocytes,0.1–0.5 µM
Nc1nc(=O)c2ncn([C@@H]3O[C@H](CO)[C@@H](O)[C@H]3O)c2c(=O)[nH]1,,,,2.2.15,>10 µM
CNS(=O)(=O)N1CC[C@@H](NS(=O)(=O)c2c(F)c(C(=O)Nc3ccc(F)c(F)c3)n3c2CCCC3)C1,,,PCR,HepAD38 cells,<0.1 µM
Cn1cc(S(=O)(=O)Nc2cc(F)c3c(C(=O)Nc4ccc(F)c(Cl)c4)n(C)nc3c2)cn1,,,PCR,HepAD38,100–1000 µM
CNC(=O)c1ccc(-n2c(=O)c3c(n4ncc(Nc5ccccc5)c24)CN(C(=O)c2ccc(Cl)c(Cl)c2)CC3)cc1,,3 d,PCR,HepG2.117,<0.1 µM
Cn1nc2cc(NS(=O)(=O)c3cnn(Cc4ccccc4)c3)ccc2c1C(=O)Nc1ccc(F)c(Cl)c1,,,PCR,HepAD38,100–1000 µM
O=C(NCc1ccccc1-n1cccn1)c1c2n(c(=O)n1-c1ccc(OC3CC3)cc1)CCN(C(=O)c1ccc(Br)c(Cl)c1)C2,,,PCR,HepG2.117,<0.1 µM
COCCCOc1cc2c(cc1-c1cccs1)-c1c(cc(C(=O)O)c(=O)n1C1CC1)C(C)S2(=O)=O,,,antigen / visual reading / absorbance,Primary human hepatocytes,>0.05 µM
COc1ccc(-n2c(C(=O)NCc3ccccc3)c3n(c2=O)CCN(C(=O)c2ccc(Cl)c(Cl)c2)C3)c(C(F)(F)F)c1,,,PCR,HepG2.117,>5 µM
CCOC(=O)Nc1cc2c(cc1OCCCOC)S(=O)(=O)C(C)c1cc(C(=O)O)c(=O)n(C3CC3)c1-2,,,antigen / visual reading / absorbance,Primary human hepatocytes,>0.5 µM
O=C(NCc1c(F)cccc1-n1cccn1)c1c2n(c(=O)n1-c1ccc(OC3CC3)cc1)CCN(C(=O)c1ccc(Br)c(Cl)c1)C2,,,PCR,HepG2.117,<0.1 µM
Cn1nc2cc(NS(=O)(=O)c3cnn(C4CCCC4)c3)ccc2c1C(=O)Nc1ccc(F)c(Cl)c1,,,PCR,HepAD38,<100 µM

For reference, 3 entries again:

smiles,strain,conditions,method,cell line,value
Cn1nc2cc(NS(=O)(=O)c3cnn(Cc4ccccc4)c3)ccc2c1C(=O)Nc1ccc(F)c(Cl)c1,,,PCR,HepAD38,100–1000 µM
O=C(NCc1ccccc1)c1c2n(c(=O)n1-c1ccc(OC3CC3)cc1)CCN(C(=O)c1cc(Cl)c(Br)cc1F)C2,,,PCR,HepG2.117,>0.5 µM
COc1ccc(-n2c(-c3nnc(Cc4ccccc4)o3)c3n(c2=O)CCN(C(=O)c2ccc(Cl)c(Cl)c2)C3)cc1,,,PCR,HepG2.117,>5 µM